Source: patent US7012086B1, “Treatment of retrovirus induced derangements with niacin compounds” (The Foundation For Innovative Therapies, Inc., priority 2000, dated 2006)
Entries after “also recorded” stand apart in the source; their conditions may differ.

System: HIV infected persons
Experiment: Clinical trial of niacin (nicotinamide) in HIV infected persons: plasma amino acids by HPLC, tolerability
Type: in vivo, human
Settings: 3 grams/day of oral nicotinamide for 2 months

SMILES: NC(=O)c1cccnc1 [nicotinamide]
- change in plasma amino acid concentrations other than tryptophan (methionine, lysine, cysteine, taurine): no discernible pattern of change; also recorded: no significant change
